# Potato spindle tuber viroid, loop 6: variant abundance in plants

The pool varies loop 6 of the PSTVd intermediate strain in the pattern UNNNCGNNNG; wild type is UGACCGCGAG (upper and lower strand joined, each 5' to 3', the first 5 letters being the upper strand, closing pairs included).

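A pool of all variants was put on leaves of three Nicotiana benthamiana plants. Progeny were sequenced from the inoculated region (day 5), the margin of the inoculated leaf (day 10) and systemic leaves (day 12).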

Values are reads per thousand in the sample; higher means more abundant, 0 means not found.
Each site shows the three plants.
"Pool" is the share in the plasmid pool used as inoculum, on the same scale.
The inoculated region was read from the minus strand, the other sites from the plus strand.
IR is the inoculated region, LM the leaf margin, Sys the systemic leaves.
Samples held 36,220 to 57,551 reads, so the smallest values rest on one or two reads.
For reference, wild type rose from 20.7 per thousand in the pool to 195, 198, 203 (inoculated region), 629, 591, 734 (leaf margin) and 942, 870, 868 (systemic leaves).
Sequences that differ at fixed positions probably stem from PCR or sequencing errors, and defective variants can be carried along by functional ones.

| # | sequence | pool | IR | LM | Sys |
|---|---|---|---|---|---|
| 1 | UACUCGUUGG | 0.275 | 0.104 0.0719 0.0738 | 0 0 0 | 0 0 0 |
| 2 | UCUUCGAAUG | 0.327 | 0.261 0.0539 0.129 | 0 0 0.0464 | 0 0 0 |
| 3 | UACCCGUUGG | 0.340 | 0.0869 0.0539 0.0738 | 0 0 0 | 0 0 0 |
| 4 | UGACGGAACG | 0.0131 | 0 0 0 | 0 0 0 | 0 0 0 |
| 5 | UGGACGAAGG | 0.183 | 0.139 0.144 0.0553 | 0 0 0.0464 | 0 0 0 |
| 6 | UGGGCGGACG | 0.248 | 0.122 0.0719 0.0184 | 0.0276 0 0 | 0 0 0 |
| 7 | UUCCCGCAUG | 0.157 | 0.0521 0.0539 0.129 | 0 0 0 | 0 0 0 |
| 8 | UGGCCGCAUG | 0.222 | 0.0869 0.126 0.184 | 0.0276 0 0.0232 | 0 0 0 |
| 9 | UCGACGUUUG | 0.327 | 0.122 0.0359 0.0553 | 0 0 0 | 0 0 0 |
| 10 | UGACCGGUUG | 0.405 | 0.330 0.198 0.258 | 0 0.933 0.0928 | 0.162 0.0808 0.267 |
| 11 | UGACAGUGGG | 0.0131 | 0 0.0180 0 | 0 0 0 | 0 0 0 |
| 12 | UCUUCGCCUG | 0.209 | 0.139 0.198 0.111 | 0 1.31 0.0696 | 0 0 0.0205 |
| 13 | UAGCCUGGAG | 0.0131 | 0 0 0 | 0 0 0 | 0 0 0 |
| 14 | UAAGCGUGCG | 0.314 | 0.765 0.772 0.387 | 0.166 0 0 | 0.0539 0.0202 0.0820 |
| 15 | UGAGCGGACG | 0.209 | 0.226 0.0719 0.148 | 0.0276 0 0 | 0 0 0 |
| 16 | UAGCCGAAAG | 0.183 | 0.122 0.0539 0.0738 | 0.0276 0.101 0 | 0 0 0 |
| 17 | UUCGCGGCUG | 0.288 | 0.122 0.144 0.0738 | 0 0 0 | 0 0 0 |
| 18 | UCACCGGGAG | 0.170 | 0.156 0.0898 0.0922 | 0 0 0.0464 | 0 0 0 |
| 19 | UUGACGGUCG | 0.222 | 0.156 0.0898 0.0738 | 0 0 0.0232 | 0 0 0 |
| 20 | UCUUCGCAGG | 0.235 | 0.226 0.0898 0.0738 | 0 0.0504 0 | 0 0 0 |
| 21 | UCAACGUGGG | 0.222 | 0.104 0.108 0.0553 | 0 0 0 | 0 0 0 |
| 22 | UUAACGUGCG | 0.209 | 0.834 0.754 0.406 | 0.193 0.0757 0.0928 | 0 0 0 |
| 23 | UCGCCGUAUG | 0.275 | 0.139 0.0898 0.0922 | 0.359 0 0.0464 | 0 0 0 |
| 24 | UUACCGGACG | 0.301 | 0.487 0.844 0.645 | 0.0828 0.151 0 | 0 0 0 |
| 25 | UUUGCGGAAG | 0.170 | 0.0869 0.0898 0.0369 | 0 0 0 | 0 0 0 |
| 26 | UAUACGGGAG | 0.235 | 0.886 0.719 0.406 | 0.0276 0.126 0.116 | 0 0 0 |
| 27 | UCAGCGGAAG | 0.118 | 0.904 0.736 0.553 | 0.0828 0 0.0696 | 0.0359 0.0404 0.0615 |
| 28 | UCUCCGUAAG | 0.157 | 0.0521 0.0898 0.129 | 0 0 0.0232 | 0 0 0 |
| 29 | UCUGCGAACG | 0.314 | 0.0348 0.108 0.0184 | 0 0 0.0232 | 0 0 0 |
| 30 | CGACCGUUGG | 0.0131 | 0.0174 0 0.0184 | 0 0 0.0232 | 0 0 0 |
| 31 | UACCCGCGCG | 0.170 | 0.0869 0.0359 0.129 | 0.0276 0 0 | 0 0 0 |
| 32 | UGUCCGUAAG | 0.144 | 0.608 0.808 0.498 | 0.193 0.151 0.139 | 0 0 0 |
| 33 | UCGUCGGAUG | 0.275 | 0.104 0.0719 0.0369 | 0.0276 0 0.0232 | 0 0 0 |
| 34 | UUGUCGCCCG | 0.366 | 0.104 0.0719 0.0553 | 0.0276 0 0 | 0 0 0 |
| 35 | UCUCCGCAAG | 0.0784 | 0.660 0.683 0.479 | 0 0.101 0.0696 | 0 0 0 |
| 36 | UUUUCGGCAG | 0.170 | 0.139 0.0898 0.0738 | 0 0 0 | 0 0 0 |
| 37 | UAAUCGGAGA | 0.0131 | 0 0 0 | 0 0 0 | 0 0 0 |
| 38 | UAAACGCGCG | 0.0654 | 0.747 0.521 0.664 | 0.0828 0.126 0.0928 | 0.0359 0.0606 0 |
| 39 | UUCCCGAGGG | 0.222 | 0.122 0.108 0.0369 | 0.0276 0 0 | 0 0 0 |
| 40 | UAUCCGAGGG | 0.275 | 0.139 0.0719 0.0738 | 0 0 0 | 0 0 0 |
| 41 | UUCUCGCUUG | 0.431 | 0.122 0.108 0.0738 | 0 0 0.0232 | 0 0 0 |
| 42 | UGACCGAGGG | 0.340 | 0.174 0.287 0.258 | 0.387 0.0252 0.0464 | 0.0359 0.101 0.164 |
| 43 | UACCCGGAAG | 0.196 | 0.139 0.0898 0.0738 | 0 0 0 | 0 0 0 |
| 44 | UCUACGAGUG | 0.196 | 0.0521 0.108 0.111 | 0.0552 0 0 | 0 0 0 |
| 45 | UGUGCGGUCG | 0.288 | 0.156 0.126 0.0553 | 0 0 0 | 0 0 0 |
| 46 | UUCCCGCUCG | 0.183 | 0.139 0.126 0.111 | 0.0276 0 0.0232 | 0 0 0 |
| 47 | UGGGCGUUAG | 0.314 | 0.156 0.198 0.0369 | 0.0276 0 0 | 0 0 0 |
| 48 | UUACCUCGAG | 0.0131 | 0.626 0.611 0.369 | 0.138 0.0252 0.0464 | 0.0539 0.0202 0.123 |
| 49 | UCAACGCAUG | 0.144 | 0.156 0.0539 0.0369 | 0 0 0 | 0.0180 0.0404 0.0615 |
| 50 | UGUCCGCCCG | 0.248 | 0.122 0.108 0.0553 | 0 0 0 | 0 0 0 |
| 51 | UCACCGGGCG | 0.144 | 0.0869 0.0359 0.148 | 0 0 0 | 0 0 0 |
| 52 | UGCCCGCGCG | 0.0915 | 0.209 0.0359 0.111 | 0.0276 0 0.0232 | 0 0 0 |
| 53 | UAAACGGUAG | 0.209 | 0.626 0.719 0.645 | 0.138 0.101 0 | 0 0 0 |
| 54 | UUCUCGUGGG | 0.235 | 0.0521 0.108 0.111 | 0 0 0 | 0 0 0 |
| 55 | UUGGCGGUCG | 0.327 | 0.0869 0.0539 0.0553 | 0.0276 0 0 | 0 0 0.0205 |
| 56 | UCUACGAAAG | 0.196 | 0.122 0.108 0.0738 | 0 0 0 | 0 0 0 |
| 57 | UUUCCGCGCG | 0.196 | 0.122 0.0539 0.111 | 0 0 0.0232 | 0.0180 0.0808 0 |
| 58 | UACACGCAUG | 0.105 | 0.104 0.108 0.0738 | 0 0 0 | 0 0 0 |
| 59 | UCACCGUUAG | 0.340 | 0.104 0.144 0.129 | 0 0 0.0696 | 0 0 0 |
| 60 | UCACCGAAGG | 0.105 | 0.174 0.0359 0.111 | 0 0 0.0232 | 0 0 0 |
| 61 | UCCCCGGUUG | 0.458 | 0.0695 0.0180 0.0922 | 0 0.0504 0.0232 | 0 0 0 |
| 62 | UAUGCGGGGG | 0.0915 | 0.139 0.0719 0.111 | 0 0 0.0464 | 0 0 0 |
| 63 | UUACCGACCG | 0.209 | 0.156 0.216 0.148 | 0 0 0.0232 | 0 0 0 |
| 64 | UUCCCGCAAG | 0.209 | 0.730 0.736 0.664 | 0.0828 0.0757 0.162 | 0 0 0 |
| 65 | UCUUCGUAAG | 0.275 | 0.104 0.0180 0.0922 | 0.0276 0 0 | 0 0 0 |
| 66 | UUUUCGGUAG | 0.170 | 0.0695 0.0539 0.0184 | 0 0 0 | 0 0 0 |
| 67 | UGCCCGCACG | 0.196 | 0.0174 0.0719 0.0738 | 0 0 0 | 0 0 0 |
| 68 | UAUUCGCACG | 0.209 | 0.174 0.144 0.0922 | 0 0 0 | 0 0 0 |
| 69 | UCCCCGCUCG | 0.366 | 0.104 0.0898 0.111 | 0 0.0252 0 | 0 0 0 |

4 of these entries, quoted again:

| sequence | pool | IR | LM | Sys |
|---|---|---|---|---|
| UUACCGGACG | 0.301 | 0.487 0.844 0.645 | 0.0828 0.151 0 | 0 0 0 |
| UGCCCGCGCG | 0.0915 | 0.209 0.0359 0.111 | 0.0276 0 0.0232 | 0 0 0 |
| UGAGCGGACG | 0.209 | 0.226 0.0719 0.148 | 0.0276 0 0 | 0 0 0 |
| UCGUCGGAUG | 0.275 | 0.104 0.0719 0.0369 | 0.0276 0 0.0232 | 0 0 0 |

From the data files of Wu et al. 2024, doi:10.1371/journal.ppat.1012142.